Measurements from PMC9763686 (The Journal of Biological Chemistry, 2022).

Biological target: NP of H7N9 IAV (in killed denatured H7N9 (H7-Re3) viral particles) (Influenza A virus H7N9 H7-Re3 vaccine …, UniProt P03466, strain)
Test: ELISA

Binder	binding result
H9N2-NP-Nb5-HRP (VHH) VHH: ESGGGLVQPGGSLRLSCAASGFPFSDYDMNWARQAPGKELEDVSAISSGGTYTYYADSVKGRFTISRDNAKNTLYLQLNSLQTEDTAMYYCGRGWTSGYKSRGQGTQVTVSS	binds
H9N2-NP-Nb16-HRP (VHH) VHH: ESGGGSVQAGGSLRLSCAASGYTYSAYCMGWFRQAPGKEREEVASIDSDFGTNYADSVKGRFTISKDNPKNTLYLQMNNLKAEDTAMYYCAALKYSSSLCLDALPSRANYWGQGTQVTVSS	binds
H9N2-NP-Nb18-HRP (VHH) VHH: ESGGGSVQAGGSLRLSCAASHTYGTYAMAWFRQAPGEEREGVAAIDSDGETIYADSVKGRFTISRDNAKNILYLQMNSLKPEDTAMYYCAEDLRGVWYGRLELRPGRFTYWGQGTQVTVSS	binds
H9N2-NP-Nb42-HRP (VHH) VHH: ESGGESVQAGGSLRLSCATSGFTYNRSYCMAWFRQVLGKEREGVAVIDRVGGSTYYADSVKGRFTVSQDNAKTTLYLQMNSLTPEDTAMYYCAAVSTLMTTCQGLLAGHSQRYAYWGQGTQVTVSS	binds
H9N2-NP-Nb53-HRP (VHH) VHH: ESGGGSVQAGGSLRLSCAASGYTFSNVYMGWFRQAPGKEREGVAAIDRDGRTTYGDSVKGRFTISQDNAKNILYLQMSSLKPEDTATYYCAADPGYVELISEPLAGIWYRYWGQGTQVTVSS	binds
